Reference: PubChem BioAssay AID1259414 (Drosophila RNAi Screening Center, 2018)
The deposit covers about 24,000 reagents; below is an unselected part of those that have a named target and a result. Over the whole deposit, about 1,210 (5%) are marked active. 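Inactive calls also include excluded dsRNAs with several or no targets, genes unexpressed in JW18, and well A1, regardless of score.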 Entries without a mark were called inactive. Reagent sequences are not shown.

Assay: 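Fly genes that alter Wolbachia amount inside host cells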 (primary screen)
Cells: Drosophila JW18 cells infected with Wolbachia
Reagents: long dsRNA against Drosophila genes, 0.25 µg dsRNA per well of a 384-well plate
Time to read-out: 5 days
Challenge: cells persistently infected with Wolbachia before knock-down; no added drug
Measurement: 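Automated imaging of bacterial rRNA staining divided by host cell count, reported as plate-normalised robust z-score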
Reading the numbers: Wolbachia per cell robust z: higher = more Wolbachia per host cell than the plate typical
Hit rule: 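Hit when robust z is 1.5 or more, or -1.5 or less, in at least two of three replicates; excludes dsRNAs with several or no targets, genes not expressed in JW18 and well A1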

gene | amplicon | Wolbachia per cell robust z, rep 1 | Wolbachia per cell robust z, rep 2 | Wolbachia per cell robust z, rep 3
kune (kune-kune) | DRSC04860 | 0.633 | -1.4 | -0.243
CG30197 | DRSC22394 | -0.743 (active) | -1.66 | -2.11
dlg1 (discs large 1) | DRSC18896 | -2.28 (active) | -7.93 | 2.44
dlg1 (discs large 1) | DRSC19767 | 0.852 | 0.999 | 0.245
dlg1 (discs large 1) | DRSC20324 | -1.43 | -0.0247 | -0.129
dlg1 (discs large 1) | DRSC29546 | -0.599 | -0.0299 | 0.353
CG3556 | DRSC18309 | 0.0656 | 0.737 | -0.916
CG3556 | DRSC27365 | -2.17 (active) | -0.389 | -5.98
CG10822 | DRSC06005 | 0.227 | -1.22 | -0.582
FANCI (Fanconi anemia complementation group I) | DRSC06416 | -1.77 (active) | -4.73 | -0.688
Or71a (Odorant receptor 71a) | DRSC11244 | -0.076 | 0.0569 | -1.1
TkR86C (Tachykinin-like receptor at 86C) | DRSC16880 | -2.98 | 0.24 | -1.32
pico | DRSC19430 | -0.752 | -0.798 | -1.29
CG7988 | DRSC16358 | -3.93 | 0.25 | 0.409
Obp57a (Odorant-binding protein 57a) | DRSC22047 | -2.42 | 0.484 | 0.66
Obp57a (Odorant-binding protein 57a) | DRSC25699 | 0.83 | -0.364 | 0.151
SecS (Sec synthetase) | DRSC12222 | 0.181 | -0.0232 | -0.0998
Zip88E (Zinc/iron regulated transporter-related protein 88E) | DRSC15562 | -0.127 | 0.293 | 0.558
Zip88E (Zinc/iron regulated transporter-related protein 88E) | DRSC25826 | -0.32 | -1.18 | -2.17
vg (vestigial) | DRSC07715 | -3.22 (active) | -1.91 | -1.38
vg (vestigial) | DRSC22669 | 0.344 | -0.00837 | 0.348
vg (vestigial) | DRSC29857 | 0.107 | -1.07 | 0.494
CG10750 | DRSC02105 | -2.77 | 0.0708 | -1.43
CG10750 | DRSC29624 | -0.22 | -6.03 | 0.475
D19A | DRSC11133 | 1.18 | 1.3 | 2.68
D19A | DRSC26967 | -0.0541 | 0.657 | 0.626
png (pan gu) | DRSC18582 | 0.219 | -1.47 | -1.05
png (pan gu) | DRSC26812 | 0.34 | -0.46 | 0.215
eIF3h (eukaryotic translation initiation factor 3 subunit h) | DRSC01995 | 1.25 | -0.146 | -1.97
eIF3h (eukaryotic translation initiation factor 3 subunit h) | DRSC27567 | 0.593 | -1.19 | 1.97
mim (missing-in-metastasis) | DRSC23045 | 0.0425 | 1.01 | -1.82
mim (missing-in-metastasis) | DRSC27684 | 0.582 | 0.489 | -0.456
CG9016 | DRSC03127 | 0.126 | 0.37 | 0.206
CG9016 | DRSC24205 | 0.428 | 1.27 | -0.0872
Rdl (Resistant to dieldrin) | DRSC11264 | 0.16 | 0.0745 | -1.92
Rdl (Resistant to dieldrin) | DRSC27696 | -0.0481 | -0.605 | -7.09
Fer1 (48 related 1) | DRSC12507 | -0.319 | 1.02 | -0.669
Fer1 (48 related 1) | DRSC12555 | 0.394 | 0.678 | -0.894
Fer1 (48 related 1) | DRSC29849 | -0.542 | -1.69 | -0.162
mdu (meduse) | DRSC23192 | -2.93 | 1.26 | 0.593
mdu (meduse) | DRSC28604 | -1.77 | -0.347 | 0.456
MED25 (Mediator complex subunit 25) | DRSC22981 | -2.2 | -0.297 | -1.18
MED25 (Mediator complex subunit 25) | DRSC25776 | -0.524 | -1.13 | -0.232

No new results follow: 5 of the entries above.
gene | amplicon | Wolbachia per cell robust z, rep 1 | Wolbachia per cell robust z, rep 2 | Wolbachia per cell robust z, rep 3
CG10750 | DRSC29624 | -0.22 | -6.03 | 0.475
D19A | DRSC11133 | 1.18 | 1.3 | 2.68
D19A | DRSC26967 | -0.0541 | 0.657 | 0.626
png (pan gu) | DRSC18582 | 0.219 | -1.47 | -1.05
png (pan gu) | DRSC26812 | 0.34 | -0.46 | 0.215

Continued.
gene | amplicon | Wolbachia per cell robust z, rep 1 | Wolbachia per cell robust z, rep 2 | Wolbachia per cell robust z, rep 3
CG5823 | DRSC15881 | 1.02 | -4.9 | -0.76
RpS6 (Ribosomal protein S6) | DRSC18712 | 6.05 (active) | 3.15 | 4.05
RpS6 (Ribosomal protein S6) | DRSC25010 | 4.31 (active) | 6.11 | 7.01
Fdh (Formaldehyde dehydrogenase) | DRSC16670 | -1.7 | -0.863 | -0.642
Sgt (small glutamine-rich tetratricopeptide containing protein) | DRSC02812 | 1.17 | 0.699 | 0.114
Sgt (small glutamine-rich tetratricopeptide containing protein) | DRSC25360 | -13.1 (active) | -1.54 | -0.773
Irc (Immune-regulated catalase) | DRSC16454 | -0.0789 | 0.548 | 1.09
Irc (Immune-regulated catalase) | DRSC28100 | -0.352 | 0.0956 | -1.09
CG6550 | DRSC07001 | 0.989 | -0.405 | 0.388
CG33758 | DRSC38885 | -0.461 | -0.817 | -0.841
CG2681 | DRSC18464 | -0.521 | 0.188 | 0.887
CG2681 | DRSC24864 | 0.809 | -1.19 | -1.32
CG32266 | DRSC08062 | -0.538 | -0.0578 | 1.04
CG32266 | DRSC27644 | 0.409 | 0.0429 | 0.0275
CG17217 | DRSC02592 | 1.27 | 0.794 | 0.668
CG1246 | DRSC08275 | 0.194 | 0.373 | 0.386
CG11095 | DRSC19375 | 0.0209 | -0.609 | 0.486
CG11095 | DRSC26123 | -0.292 | -1.27 | -0.188
Nepl6 (Neprilysin-like 6) | DRSC03242 | 0.195 | 0.38 | 0.0827
Nepl6 (Neprilysin-like 6) | DRSC26260 | -0.454 | -0.209 | 0.85
CG13218 | DRSC06340 | 0.000792 | -0.113 | 0.253
CG13218 | DRSC26951 | -0.931 | -1.05 | 0.373
grass (Gram-positive Specific Serine protease) | DRSC15911 | 0.619 | 0.602 | 0.815
CG9427 | DRSC16490 | 0.518 | -0.568 | 0.189
CG9427 | DRSC28856 | -1.61 | -0.00449 | 0.206
